Experimental data published in PMC11939955, “Enhancing Antimicrobial Peptides from Frog Skin: A Rational Approach” (Biomolecules, 2025).

Tests used:
[1] = Dynamic light scattering of LUVs; conditions: DLS, LUVs of E. coli lipid extract
[2] = Carboxyfluorescein (CF) release from LUVs; design: species or system E. coli; conditions: 8, 32, 50 and 64 μM peptide, 10 min
Description: Large unilamellar vesicles (LUVs) were prepared with the total lipid extract of E. coli (Avanti Polar Lipids). For this, an aliquot of 1 mg of lipids dissolved in chloroform was deposited into a glass tube and dried by evaporation with nitrogen (N2). The glass tube underwent vacuum treatment to eliminate any residual solvent traces. The lipids were then hydrated in 200 μL of a 5,6-carboxyfluorescein (CF) solution (Sigma-Aldrich) at a concentration of 49 mM, pH 8, and 431 mOsm/kgH2O through nine cycles of heating (70 °C for 30 s), vortexing (1 min), and freezing (ice bath for 30 s). A polycarbonate filter with a pore size of 100 nm was employed to standardize the liposome size. Twenty-one extrusion cycles were conducted at 40 °C through the filter, resulting in LUVs with an average diameter of 100 nm. Size exclusion chromatography (Sephadex G-25) was utilized to remove the CF outside of the LUVs.
The fluorescence spectra of the CF-filled LUVs were measured using a FluoroMax3 Jobin Yvon spectrofluorometer (Horiba Jobin Yvon; Edison, NJ, USA). A 200 μL aliquot of the LUVs containing 100 μM CF was utilized for the experiment. Excitation was performed over a wavelength range of 400 to 540 nm, with the emission recorded at 517 nm. The peptides were added at various final concentrations (8, 32, 50, and 64 μM), and the fluorescence was assessed 10 min after each addition. […]

In the case of RAGALWPAIRGAIKKIIKK-NH2 [dHP3-50.137], the “Vesicle aggregation, in words” value [1] was “promoted vesicle aggregation”.

In the case of RLGALIPAIRGAIKKLIKK-NH2 [dHP3-50], the “CF release from LUVs, in words” value [2] was “intermediate behaviors” and the “Vesicle aggregation, in words” value [1] was “promoted vesicle aggregation”.

For RLGKLIPRIAKAIGRLIRK-OH [dHP3-84], the “CF release from LUVs, in words” value [2] was “did not affect bilayer permeability; also recorded: did not promote the release of CF” and the “Vesicle aggregation, in words” value [1] was “did not induce membrane disruption or aggregation”.

In the case of RRGKLIPRLAKAIGRLIRK-OH [dHP3-84.39], the “Vesicle aggregation, in words” value [1] was “promoted vesicle aggregation”.

“Also recorded” adds a separate entry of the source. Some entries repeat one wording, which the source may state once for all of them. Where no end group is shown, it is not given here.
